pIC50: −log10 of the molar value.
Tests used:
[1] = test system: RKO control cells; assay: Cytotoxicity (sulforhodamine), RKO stably transfected with empty vector
[2] = test system: OATP1B1-expressing RKO cells; conditions: read-out: IC50 RKO B1; RKO stably transfected with OATP1B1; 1000 cells/well, 5% fetal bovine serum, 3 days exposure, sulforhodamine assay; average of at least three independent determinations in triplicate
[3] = test system: OATP1B1- and OATP1B3-expressing HeLa or RKO cell lines; assay: Cytotoxicity and transporter selectivity as summarised in the text
[4] = test system: OATP1B3-expressing RKO cells; conditions: read-out: IC50 RKO B3; RKO stably transfected with OATP1B3; 1000 cells/well, 5% fetal bovine serum, 3 days exposure, sulforhodamine assay; average of at least three independent determinations in triplicate

Measured: pIC50

C/C=C1/NC(=O)CC[C@H](C(=O)O)NC(=O)[C@@H](C)[C@H](/C=C/C(C)=C/[C@H](C)[C@H](Cc2ccccc2)OC)NC(=O)[C@H](CCCNC(=N)N)NC(=O)C[C@H](C(=O)O)NC(=O)[C@H](CCCNC(=N)N)NC(=O)[C@@H](C)NC1=O
< 7.00: [1] | [2] | [3] | [4]
